Reference: PubChem BioAssay AID624099 (ICCB-Longwood, 2012)
Test: 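Host factors E2 relies on to silence an HPV18 LCR reporter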 (primary screen). System: human C33A cervical carcinoma cells (HPV-negative) stably expressing BPV1 E2 and an HPV18 LCR luciferase reporter. Knock-down reagent: siRNA pool against human genes, 40 nM. Time to read-out: 72 h. Measurement: 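Per-well luciferase luminescence, z-scored on each plate against the plate mean and SD with control wells left out, then averaged across three replicate plates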. Direction: mean z-score and z-score: higher = stronger reporter signal, weaker E2 silencing. Call rule: 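Mean z ≥ 2 together with z ≥ 2 in two or more of the three replicates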.
Here is an unselected part of about 21,000 reagents. Of all reagents, 497 (2.4%) were called active. 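Higher z means weaker E2 silencing; only reporter increases were scored, and knock-downs that hurt cell survival may mask genuine repressor factors.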 Unmarked entries are inactive. Reagent sequences are not shown.

| target gene | PubChem SID | mean z-score | z-score, replicate A | z-score, replicate B | z-score, replicate C |
| --- | --- | --- | --- | --- | --- |
| BIRC2 | SID134310429 | 0.76 | 0.76 | 0.57 | 0.95 |
| MT1E | SID134322298 | -0.48 | -0.31 | -0.76 | -0.36 |
| ZNF678 | SID134319054 | 0.41 | 0.36 | 0.48 | 0.39 |
| ZNF678 | SID134321902 | 3.09 (active) | 3.28 | 2.84 | 3.14 |
| ABCA11P | SID134318652 | -0.23 | -0.16 | -0.26 | -0.27 |
| METTL3 | SID134310786 | -0.39 | -0.47 | -0.31 | -0.39 |
| BRD3 | SID134310676 | 0.2 | 0.36 | 0.04 | 0.2 |
| SLC49A4 | SID134325032 | -0.13 | 0.01 | -0.16 | -0.22 |
| CASR | SID134310895 | 0.43 | 0.1 | 0.74 | 0.46 |
| OR9K2 | SID134329891 | 0.14 | -0.06 | -0.02 | 0.49 |
| NLRP7 | SID134320864 | -1.44 | -1.52 | -1.63 | -1.16 |
| LYZL4 | SID134319997 | 1.22 | 1.02 | 1.26 | 1.39 |
| ZNF792 | SID134321841 | -0.45 | -0.62 | -0.51 | -0.2 |
| CCDC183 | SID134322187 | 0.18 | 0.69 | 0.18 | -0.34 |
| FCRL5 | SID134315082 | 0.31 | 0.33 | 0.19 | 0.42 |

3 of these entries in another layout.
ZNF792 [SID134321841]
- mean z-score: -0.45
- z-score, replicate A: -0.62
- z-score, replicate B: -0.51
- z-score, replicate C: -0.2

CCDC183 [SID134322187]
- mean z-score: 0.18
- z-score, replicate A: 0.69
- z-score, replicate B: 0.18
- z-score, replicate C: -0.34

FCRL5 [SID134315082]
- mean z-score: 0.31
- z-score, replicate A: 0.33
- z-score, replicate B: 0.19
- z-score, replicate C: 0.42

Additional entries:
| target gene | PubChem SID | mean z-score | z-score, replicate A | z-score, replicate B | z-score, replicate C |
| --- | --- | --- | --- | --- | --- |
| PLAGL2 | SID134315031 | -0.02 | -0.18 | -0.17 | 0.28 |
| C8A | SID134315478 | 0.36 | 0.36 | 0.49 | 0.21 |
| RLBP1 | SID134319982 | -1.11 | -1.01 | -1.24 | -1.08 |
| ALKBH5 | SID134310359 | 0.2 | 0.33 | 0.24 | 0.03 |
| ITPRIPL1 | SID134322245 | -0.22 | 0.42 | -0.33 | -0.74 |
| PRRC2A | SID134317529 | 0.94 | 1.15 | 0.97 | 0.7 |
| GANC | SID134326875 | 2.9 (active) | 3.07 | 2.86 | 2.77 |
| VAMP2 | SID134316765 | -0.02 | 0.4 | -0.29 | -0.17 |
